Laboratory results: patent publication US20160376333A1 (University of Washington, published 2016)

Target: T1, Bim-BH3 motif fused to the C-terminus of maltose-binding protein (MBP) (human)
T1 construct: domain: Bim-BH3 motif; also called MBP-Bim-BH3
Test: BLI, biotinylated target on streptavidin sensor, MBP-Bim-BH3 in solution

B1: human Bcl-2 a.a. 1-207 with C-terminal avi-6his tag (other)
chain: AHAGRTGYDNREIVMKYIHYKLSQRGYEWDAGDVGAAPPGAAPAPGIFSSQPGHTPHPAASRDPVARTSPLQTPAAPGAAAGPALSPVPPVVHLTLRQAGDDFSRRYRRDFAEMSSQLHLTPFTARGRFATVVEELFRDGVNWGRIVAFFEFGGVMCVESVNREMSPLVDNIALWMTEYLNRHLHTWIQDNGGWDAFVELYGPSMRGLNDIFEAQKIEWHEGSHHHHHH
  Kd: 0.75 nM
